Measured values from several laboratories, pooled; numbers as filed in NIAID ChemDB.

Common to all: whole-cell or culture tests; species: Candida albicans; read-out: MIC

Neighbouring rows are from separate reports. An empty or dashed field is not shown. Two numbers with a dash give a range or band.

compound,setting,strain or isolate,result
CCCCCCCC[N+](C)(C)COC(C)CCC,,ATCC 10231,1700 µM
COC(=O)CNC(=O)[C@@H](NC(=O)CNC(=O)c1cc(I)ccc1-c1cnc(C)[nH]1)C(C)C,,,6.25 µg/mL
CCCCCCCCCCSC[N+](C)(C)CCCCCCCC,,ATCC 10231,132 µM
Cc1[nH]n(CCO)c(=O)c1N=Nc1ccc(C(=O)N/N=C/c2ccc(F)cc2)cc1,,ATCC 2091,500 µg/mL
O=C(CSc1nc2c(sc(=S)n2-c2ccccc2)c(=O)n1-c1ccccc1)c1ccccc1,,ATCC 90018,64 µg/mL
COc1cc(C2C=C(c3ccc4c(c3)OCO4)NC(=S)N2)cc(OC)c1OC,,DSM 70014,100 µg/mL
O=C(CSc1nc2c(sc(=S)n2-c2ccccc2)c(=O)n1-c1ccccc1)c1ccc(Br)cc1,,ATCC 90018,1 µg/mL
CNC1C(C)OC(O[C@H]2c3cc(C)c(C(=O)N[C@@H](CO)C(=O)O)c(O)c3-c3c(cc4c(c3O)C(=O)c3cc(OC)cc(O)c3C4=O)[C@@H]2O)C(O)C1OC1OCC(O)C(O)C1O,,IAM4888,6.3 µg/mL
COc1ccc(C2=NN(c3ccc([N+](=O)[O-])cc3)C(c3cc(OC)c(OC)c(OC)c3)C2)cc1OC,,DSM 70014,100 µg/mL
CCC(C)CC(C)CCCCCCCCC(=O)N[C@H]1C[C@@H](O)[C@H](NCCN)NC(=O)[C@@H]2[C@@H](O)CCN2C(=O)[C@H]([C@H](O)CCN)NC(=O)[C@H]([C@H](O)[C@@H](O)c2ccc(O)cc2)NC(=O)[C@@H]2C[C@@H](O)CN2C(=O)[C@H]([C@@H](C)O)NC1=O,,50 isolates,0.4 µg/mL
CC(=O)Nc1ccc(C(=O)/C=C/c2nc3ccccc3c(=O)n2-c2ccc(C)cc2)cc1,,,>200 µg/mL
COc1cc(C2CC(c3ccc4c(c3)OCO4)=NN2C=O)cc(OC)c1OC,,DSM 70014,12.5 µg/mL
C[C@H]1[C@H](O)[C@@H](C)/C=C/C=C/C=C/C=C/C=C/C=C/C=C/[C@H](O[C@@H]2O[C@H](C)[C@@H](O)[C@H](N)[C@@H]2O)C[C@@H]2O[C@](O)(C[C@@H](O)C[C@@H](O)CC[C@H](O)[C@@H](O)C[C@@H](O)CC(=O)O[C@H]1C)C[C@H](O)[C@H]2C(=O)O,,IAM4888,0.4 µg/mL
CCCSc1nc(Cl)c(C#N)c(-c2ccco2)n1,,,>100 µg/mL
CN[C@@H]1[C@H](O[C@@H]2O[C@H](CO)[C@@H](O)[C@H](S(=O)(=O)O)[C@H]2O)[C@@H](O)[C@H](O[C@H]2c3cc(C)c(C(=O)N[C@H](CO)C(=O)O)c(O)c3-c3c(cc4c(c3O)C(=O)c3cc(OC)cc(O)c3C4=O)[C@@H]2O)O[C@@H]1C,,ATCC 38247,6.3 µg/mL
CCn1c(SCC(=O)c2ccc(Br)cc2)nc2c(sc(=S)n2-c2ccccc2)c1=O,,ATCC 90018,64 µg/mL
COc1ccc(C2CC(c3cccs3)=NN2C(=O)CSC(=S)N2CCCCC2)cc1,,Clinical isolates,250 µg/mL
Cc1[nH][nH]c(=O)c1N=Nc1ccc(-c2n[nH]c(=O)n2-c2ccccc2)cc1,,ATCC 2091,62.5 µg/mL
O=C(CSC(=S)N1CCCC1)N1N=C(c2cccs2)CC1c1ccc(F)cc1,,Clinical isolates,250 µg/mL
O=C(O)CNc1ccc(C(=O)/C=C/c2nc3ccccc3c(=O)n2-c2ccc(Br)cc2)cc1,,,>200 µg/mL
O=C(CSC(=S)N1CCCCC1)N1N=C(c2cccs2)CC1c1ccc(O)cc1,,Clinical isolates,250 µg/mL
Cc1[nH]n(-c2ccccc2)c(=O)c1N=Nc1ccc(C(=O)N/N=C/c2ccc(F)cc2)cc1,,ATCC 2091,125 µg/mL
Cn1c(SCC(=O)c2ccc(Cl)cc2)nc2c(sc(=S)n2-c2ccccc2)c1=O,,ATCC 90018,>512 µg/mL
CCCCCCCC[N+](C)(C)COCC(CC)CCCC,,ATCC 10231,149 µM
CSc1nc(Cl)c(C#N)c(-c2ccc(F)cc2F)n1,,,>100 µg/mL
CCCCCCCCCCCC[N+](C)(C)COCCC(C)C,,ATCC 10231,28.6 µM
O=C(CSC(=S)N1CCCCC1)N1N=C(c2cccs2)CC1c1ccc(Cl)cc1,,Clinical isolates,250 µg/mL
COC(=O)[C@H](Cc1cc2ccccc2[nH]1)OC(=O)[C@H](C)NC(=O)[C@H](Cc1cc2ccccc2[nH]1)NC(=O)COc1cc(=O)oc2ccccc12,,,6.25 µg/mL
Cc1ccc(C2CC(c3cccs3)=NN2C(=O)CSC(=S)N2CCCC2)cc1,,Clinical isolates,250 µg/mL
CCNC(=S)Nn1cnc2ccccc2c1=O,,ATCC 753,100 µg/mL
CCCCCCCCCCCC[N+](C)(C)COCC,,ATCC 10231,81 µM
N#Cc1c(Cl)nc(SCc2ccc(Cl)cc2)nc1-c1cccs1,,,100 µg/mL
Cc1[nH]n(-c2ccccc2)c(=O)c1N=Nc1ccc(-c2n[nH]c(=O)n2-c2ccccc2)cc1,,ATCC 2091,600 µg/mL
Cc1ccc(-n2c(/C=C/C(=O)c3ccc(NCC(=O)O)cc3)nc3ccccc3c2=O)cc1,,,>200 µg/mL
O=C(CSC(=S)N1CCCCC1)N1N=C(c2cccs2)CC1c1ccccc1,,Clinical isolates,500 µg/mL
COc1ccc2c(Cc3ccc(C(C)(C)C)cc3)c3[n+](cc2c1OC)CCc1cc2c(cc1-3)OCO2,,ATCC28838,3.13 µg/mL
CCCCCCCCCCCC[N+](C)(C)CSCCCC,,ATCC 10231,142 µM
COC(=O)[C@H](Cc1ccc(O)cc1)NC(=O)[C@@H](NC(=O)[C@H](Cc1ccccc1)NC(=O)COc1c(Br)c(=O)oc2ccccc12)C(C)C,,,6.25 µg/mL
CCn1c(SCC(=O)c2ccccc2)nc2c(sc(=S)n2-c2ccccc2)c1=O,,ATCC 90018,64 µg/mL
COC(=O)[C@H](Cc1c[nH]c2ccccc12)OC(=O)[C@H](Cc1cnc[nH]1)NC(=O)COc1c(Br)c(=O)oc2ccccc12,,,6.25 µg/mL
COc1ccc(C2=CC(c3cc(OC)c(OC)c(OC)c3)NC(=S)N2C)cc1OC,,DSM 70014,50 µg/mL
O=C(O)CNc1ccc(C(=O)/C=C/c2nc3ccccc3c(=O)n2-c2ccccc2)cc1,,,>200 µg/mL
COC(=O)[C@@H]1CCCN1C(=O)COc1c(Br)c(=O)oc2ccccc12,,,6.25 µg/mL
C[C@H]1[C@H](O)[C@@H](C)/C=C/C=C/C=C/C=C/C=C/C=C/C=C/[C@H](O[C@@H]2O[C@H](C)[C@@H](O)[C@H](N)[C@@H]2O)C[C@@H]2O[C@](O)(C[C@@H](O)C[C@@H](O)CC[C@H](O)[C@@H](O)C[C@@H](O)CC(=O)O[C@H]1C)C[C@H](O)[C@H]2C(=O)O,,A26,0.25 µg/mL
CCCCCCCCOC[N+](C)(C)CCCCCCCC,,ATCC 10231,298 µM
Cc1c(O)cccc1C(=O)N[C@@H](CSc1ccccc1)[C@H](O)CN1C[C@H]2CCCC[C@H]2C[C@H]1C(=O)NC(C)(C)C,,I36,64 µg/mL
COc1ccc(C(=O)/C=C/c2cc(OC)c(OC)c(OC)c2)cc1OC,,DSM 70014,100 µg/mL
O=C(CSC(=S)N1CCCC1)N1N=C(c2cccs2)CC1c1ccccc1,,Clinical isolates,250 µg/mL
CCCSc1ccc2nc(NC(=O)OC)[nH]c2c1,24 h,92-824,5 µg/mL
O=C(Cc1ccccc1)NNC(=S)Nn1c(-c2ccccc2)nc2ccccc2c1=O,,ATCC 753,100 µg/mL
C[C@H](CCC(=O)NCCS(=O)(=O)O)[C@H]1CC[C@H]2[C@@H]3CC[C@@H]4C[C@H](OS(=O)(=O)O)CC[C@]4(C)C3CC[C@]12C,,ATCC 14053,>500 µg/mL
CC(=O)Nc1ccc(C(=O)/C=C/c2nc3ccccc3c(=O)n2-c2ccccc2)cc1,,,>200 µg/mL
CN[C@@H]1[C@H](O[C@@H]2OC[C@@H](O)[C@H](O)[C@H]2O)[C@@H](O)[C@H](O[C@H]2c3cc(C)c(C(=O)N[C@H](C)C(=O)O)c(O)c3-c3c(cc4c(c3O)C(=O)c3cc(OC)cc(O)c3C4=O)[C@@H]2O)O[C@@H]1C,,IAM4888,6.3 µg/mL
CCCCCCCCCCCC[N+](C)(C)CSCCCCCC,,ATCC 10231,26.3 µM
CCC(=O)NNC(=S)Nn1c(-c2ccccc2)nc2ccccc2c1=O,,ATCC 753,100 µg/mL
Cc1ccc(-n2c(/C=C/C(=O)c3ccc(N(CC(=O)O)N=O)cc3)nc3ccccc3c2=O)cc1,,,50 µg/mL
C[C@H]1[C@H]2CC[C@H]3[C@@H]4CC=C5C[C@@H](N(C)C)CC[C@]5(C)[C@H]4CC[C@]23CN1C,,ATCC 14053,31–62 µg/mL

3 of the rows above, restated:

COc1ccc2c(Cc3ccc(C(C)(C)C)cc3)c3[n+](cc2c1OC)CCc1cc2c(cc1-3)OCO2 ; strain or isolate: ATCC28838 ; result: 3.13 µg/mL
COC(=O)[C@H](Cc1ccc(O)cc1)NC(=O)[C@@H](NC(=O)[C@H](Cc1ccccc1)NC(=O)COc1c(Br)c(=O)oc2ccccc12)C(C)C ; result: 6.25 µg/mL
CN[C@@H]1[C@H](O[C@@H]2OC[C@@H](O)[C@H](O)[C@H]2O)[C@@H](O)[C@H](O[C@H]2c3cc(C)c(C(=O)N[C@H](C)C(=O)O)c(O)c3-c3c(cc4c(c3O)C(=O)c3cc(OC)cc(O)c3C4=O)[C@@H]2O)O[C@@H]1C ; strain or isolate: IAM4888 ; result: 6.3 µg/mL